Experimental data reported in publication PMC3700907 (PLoS ONE, 2013).

Assay: Spontaneous amyloid fibril formation monitored by ThT binding assay
Type: physicochemical

With `CC(=O)N[C@@H](CC(N)=O)C(=O)N[C@@H](CC(C)C)C(=O)N[C@@H](CCCCN)C(=O)N[C@@H](Cc1c[nH]cn1)C(=O)N[C@H](C(=O)N[C@@H](C)C(=O)NCC(=O)N[C@@H](C)C(=O)N[C@@H](C)C(=O)N[C@@H](C)C(=O)N[C@@H](C)C(=O)NCC(=O)N[C@@H](C)C(=O)N[C@H](C(=O)N[C@H](C(=O)NCC(=O)NCC(=O)N[C@@H](CC(C)C)C(=O)NCC(=O)NCC(N)=O)C(C)C)C(C)C)C(C)C` [mPrP(107–126)] the “average lag time for spontaneous amyloidogenesis” value (754 µM peptide in 20 mM HEPES, pH 7.4, 100 mM NaCl, 0.01% NaN3, 37°C without shaking, ThT fluorescence, mean of three independent measurements) was 41.2 h and the spontaneous fibril formation (same conditions as mPrP(107–143) and mPrP(127–143): 140 mM NaCl, 20 mM NaOAc, pH 3.7, data not shown) was “did not form fibrils”.
